# The entries are a selection whose mix differs from that of the whole data set. Active and inactive are the calls of the source.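 Rule for the calls: active = growth inhibition at or above a cutoff equal to the mean over every tested compound plus 3 SD (cut at about 60% in these data); inactive = the rest.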
# Assay: E. coli ΔtolC antibacterial growth inhibition – strain BW25113 ΔtolC::kan, 384-well, primary screen (AID 573)
# Details: E. coli BW25113 tolC mutant growth, OD615; hits give high values; screened at 10 µM (by protocol)
# Outline: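 Signal: optical density read at 615 nm; Assay system: E. coli ΔtolC::kan strain BW25113; Times: 20 h incubation with compound, 37 °C; Dosing: 10 µM final, single dose.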
row,SMILES,growth inhibition
1,N/C(=N\O)c1c(N)no[n+]1[O-],inactive: -17.2%
2,CCOc1ncccc1C(=O)NCC1(N2CCOCC2)CCCCC1,inactive: 3.08%
3,CCC(CO)(C(=O)OC1CN2CCC1CC2)c1ccccc1 (configuration not stated),inactive: -21.2%
4,Fc1ccccc1NC1CCN(Cc2ccccc2)CC1,inactive: 16.4%
5,COc1ccc(NC2CCN(CCc3ccccc3)CC2)c(OC)c1,inactive: -14.9%
6,O=C(OC1CN2CCC1CC2)C1c2ccccc2Oc2ccccc21 (configuration not stated),inactive: -4.04%
7,N#CC1(Nc2ccccc2)CCN(CCc2ccccc2)CC1,inactive: -29.6%

# — PubChem BioAssay AID573 (SRMLSC, 2007)
